# From PubChem BioAssay AID1224854 (National Center for Advancing Translational Sciences (NCATS), 2016)
# Only a part is listed here, and it is no random draw. Inconclusive results are not listed. Active and inactive are the calls of the source. The call rests on the fitted dose curve; in most records, active means well fitted activation curve with a large enough effect; inconclusive means small, poorly fitted or top-dose-only effect; inactive means flat fitted curve, though single readings scatter.
# Experiment: Cell viability assay for measurement of the protective activity of small molecules against cell death caused by Zika virus infection in human astrocytoma cells
# Details: SNB-19 Zika virus cytoprotection, ATP luminescence, 72 h; at 46.1 µM (top of the series)
# From the text: National Center for Advancing Translational Sciences [NCATS] Johns Hopkins University School of Medicine Florida State University Assay Overview: Zika virus infection causes cell death in certain cell types including human neural progenitor cells (hNPCs), astrocytes, and astrocytoma cell line (SNB-19). This cell viability assay measures the ATP content (level) in human astrocytoma cells (SNB-19) using a luminescence readout that is proportional to viable cell numbers. Decrease in the luminescence signal after Zika virus infection indicates the cell death caused by Zika virus. Small molecule inhibitors […] the decreased luminescence signal after Zika virus infection, indicating the protective effect of that small molecule on the cell death caused by Zika virus infection. This observed protective effect of small molecules against Zika virus induced cell death may result from inhibition of virus replication or cellular response to the virus infection.
# Assay Protocol Summary: The medium for SNB-19 cells is composed of RPMI 1640 (ATCC, Cat.# 30-2001), 10% fetal bovine serum (FBS) (GE healthcare Life Sciences, Cat.# SH30071.03), and 1% Pen/Strep (Gibco, Cat.# 15140-122). […] The luminescence intensity of the assay plates was measured using a ViewLux plate reader (PerkinElmer). […] The percentage inhibitions of the decreased cell viability by small molecule inhibitors were then calculated.
smiles,measurement,value
C/C1=C2N=C(/C=C3N=C(/C(C)=C4\[N-][C@@](C)([C@@H]5N=C1[C@](C)(CCC(=O)NC[C@@H](C)OP(=O)([O-])O[C@H]1[C@@H](O)[C@@H](n6cnc7cc(C)c(C)cc76)O[C@@H]1CO)[C@H]5CC(N)=O)[C@@](C)(CC(N)=O)[C@@H]4CCC(N)=O)[C@@](C)(CC(N)=O)[C@@H]\3CCC(N)=O)C(C)(C)[C@@H]/2CCC(N)=O.[C-]#N.[Co+3],protection from virus-induced cell death,inactive: -5.63%
